Results of unrelated studies side by side (data: NIAID ChemDB).

All rows: target-level tests; organism: HIV; target: Protease

a–b is a range or a potency band. An empty or dashed field is not shown. ICn is the concentration giving n% inhibition. Lines come from different laboratories, so protocols vary.

smiles | measure | read by | mutations | value
CC(C)(C)NC(=O)[C@@H]1CCCN1C(=O)[C@@H](O)[C@H](Cc1ccccc1)NC(=O)[C@H](CC(N)=O)NC(=O)COc1ccccc1[N+](=O)[O-] | IC50 | HPLC | - | 0.018 µg/mL
CC(C)(C)CC(=O)C[C@@H](CC1CCCCC1)[C@@H](O)C[C@@H](Cc1ccccc1)C(=O)N[C@H]1c2ccccc2C[C@H]1O | IC50 | HPLC | - | 0.0115–0.058 µM
CC(C)(C)NC(=O)[C@@H]1C[C@@H]2CCCC[C@@H]2CN1C[C@@H](O)CN(CCc1ccc2c(c1)OCO2)S(=O)(=O)c1ccc([N+](=O)[O-])cc1 | IC50 | - | - | 37.1 µM
CC(C)(C)NC(=O)[C@@H]1C[C@H](O)CN1C(=O)[C@@H](O)[C@H](Cc1ccccc1)NC(=O)[C@H](CC(N)=O)NC(=O)OCc1ccccc1 | IC50 | HPLC | - | 0.022 µg/mL
CC(C)(C)NC(=O)[C@@H]1C[C@@H]2CCCC[C@@H]2CN1C[C@@H](O)CN(CCc1cccc([N+](=O)[O-])c1)S(=O)(=O)c1cccc([N+](=O)[O-])c1 | IC50 | - | - | 29.85 µM
O=C(CCCCCCCCCCC(=O)Nc1ccc(S(=O)(=O)O)c2ccccc12)Nc1ccc(S(=O)(=O)O)c2ccccc12 | IC50 | fluorescence | - | 275 µM
COC(=O)C(=O)N1CCC[C@H]1C(=O)N[C@@H](Cc1ccccc1)C(=O)Nc1ccc(OCC(=O)N[C@@H](CC(N)=O)C(=O)N[C@@H](Cc2ccccc2)[C@H](O)C(=O)N2CCC[C@H]2C(=O)NC(C)(C)C)cc1 | IC50 | HPLC | - | 0.034 µg/mL
O=C(N[C@H]1c2ccccc2C[C@H]1O)[C@H](Cc1ccccc1)C[C@H](O)[C@@H](CCO)CC1CCCCC1 | IC50 | HPLC | - | 0.001–0.1 µM
COc1ccc(S(=O)(=O)N(CC(C)C)C[C@@H](O)COc2ccc3[nH]ccc3c2)cc1OC | IC50 | - | - | 1.04 µM
O=C(O)c1cc(NS(=O)(=O)c2cccc3c(S(=O)(=O)Nc4cc(C(=O)O)c(O)c(S(=O)(=O)O)c4)cccc23)cc(S(=O)(=O)O)c1O | IC50 | fluorescence | - | 80 µM
CCCCC(=O)C[C@@H](CC1CCCCC1)[C@@H](O)C[C@@H](Cc1ccccc1)C(=O)N[C@H]1c2ccccc2C[C@H]1O | IC50 | HPLC | - | 0.0115–0.058 µM
COc1ccc(S(=O)(=O)N(CCc2ccc3c(c2)OCO3)C[C@H](O)CN2C[C@H]3CCCC[C@H]3C[C@H]2C(=O)NC(C)(C)C)cc1 | IC50 | - | - | 42.43 µM
O=C(O)c1cc(NS(=O)(=O)c2cc(S(=O)(=O)Nc3cc(C(=O)O)c(O)c(S(=O)(=O)O)c3)cc(S(=O)(=O)Nc3cc(C(=O)O)c(O)c(S(=O)(=O)O)c3)c2)cc(S(=O)(=O)O)c1O | IC50 | fluorescence | - | 45 µM
C=CC(C)(C)c1[nH]c2ccccc2c1C1=C(O)C(=O)C(c2c(C(C)(C)C=C)[nH]c3ccccc23)=C(O)C1=O | Ki | - | PR-V82T | 1.25 µM
CCCC[C@H](NC(=O)[C@H](C)NC(=O)[C@H](CCC(=O)O)NC[C@H](Cc1ccccc1)NC(=O)[C@H](CC(C)C)NC(=O)[C@@H](NC(=O)[C@@H](N)CCCN=C(N)N)C(C)C)C(N)=O | IC50 | HPLC | PR-G48V | >0.075 µM
O=C(CCCCCCCCC(=O)Nc1cc(S(=O)(=O)O)cc2cc(S(=O)(=O)O)cc(O)c12)Nc1cc(S(=O)(=O)O)cc2cc(S(=O)(=O)O)cc(O)c12 | IC50 | fluorescence | - | 15 µM
CCCN(C[C@H](O)CN1C[C@H]2CCCC[C@H]2C[C@H]1C(=O)NC(C)(C)C)S(=O)(=O)c1cccc(N)c1 | IC50 | - | - | 49.87 µM
COC(=O)C(=O)N1CCC[C@H]1C(=O)N[C@@H](Cc1ccccc1)C(=O)Nc1ccccc1OCC(=O)N[C@@H](CC(N)=O)C(=O)N[C@@H](Cc1ccccc1)[C@H](O)C(=O)N1CCC[C@H]1C(=O)NC(C)(C)C | IC50 | HPLC | - | >0.1 µg/mL
CCCCCCCCCCCCCCCC(=O)Nc1ccc(S(=O)(=O)O)c2cccc(S(=O)(=O)O)c12 | IC50 | fluorescence | - | 4 µM
CC(C)CN(C[C@H](O)CN1C[C@H]2CCCC[C@H]2C[C@H]1C(=O)NC(C)(C)C)S(=O)(=O)c1cccc(N)c1 | IC50 | - | - | 0.38 µM

Repeating the final 2 entries:

smiles | measure | read by | mutations | value
CCCCCCCCCCCCCCCC(=O)Nc1ccc(S(=O)(=O)O)c2cccc(S(=O)(=O)O)c12 | IC50 | fluorescence | - | 4 µM
CC(C)CN(C[C@H](O)CN1C[C@H]2CCCC[C@H]2C[C@H]1C(=O)NC(C)(C)C)S(=O)(=O)c1cccc(N)c1 | IC50 | - | - | 0.38 µM